Values are the deposited “Percent Effect”, in %.
The record does not define 0% and 100%; most values in the screen are far below 50% and negative numbers occur (in some assays of this library far below -100).
Many other results are left out here, so strong results are more common than in the screen.
A dash means the value is not listed here; it may have been measured.

A: 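Growth of Mycobacterium tuberculosis over 3 days (7H9 medium with glucose and tyloxapol); the read-out is not stated. Tested at 500 µM. Higher reads as more growth inhibition (inferred: compounds with an IC50 in retests scored well above the rest). About 18,000 compounds were tested under these conditions; 7.9% (about 1,400) showed 50% or more at least once.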
B: 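Phenotypic screen: M. tuberculosis growth, cholesterol and DPPC medium, 4 days; the read-out is not stated. Concentration: 500 µM. Direction is inferred from retests: higher values go with more growth inhibition. About 18,000 compounds were tested under these conditions; 5% (about 900) showed 50% or more at least once.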

structure,A,B
CCOc1ncccc1CNC(=O)c1ccnn1C,7.781,-
CCn1ccc(CN2CC3(CCNCC3)OC2=O)n1,10.27,-
O=C(NC1CC1)c1ccc2c(c1)CCO2,29.07,-
Cn1cc([C@@H]2[C@@H](CN)CC(=O)N2C(C)(C)C)cn1,-,-6.468
Cc1cc(C(=O)NCCCN(C)C)c(C)o1,-,-9.594
NC1CCOc2ccc(F)cc21 (stereo not shown),25.67,-
COC(=O)Cc1ccoc1,-,-4.418
O=C(CC(F)(F)F)N1CCCC1c1ccncc1 (stereo not shown),-,-1.912
CCN(CC)Cc1nn2c(=O)cc(C)nc2s1,-1.983,-
Cc1c[nH]c(CN(C)CCC(=O)Nc2cccnc2)n1,9.586,-
COc1ccccc1NC(=O)NC(C)C,-,-15.5
NC(=O)c1c(F)cccc1OCc1noc(C2CC2)n1,1.172,-
CC1c2ccsc2CCN1C(=O)c1ccn(C)c(=O)c1 (stereo not shown),24.64,-
NC(=O)CN1CCOC(c2ccc(Cl)s2)C1 (stereo not shown),40.96,-
Cc1cnn(CCNc2cc(C)nc(N)n2)c1,5.357,-
Cc1noc(CNC(=O)CCc2ccco2)n1,-,30.02
CC1(C)C(=O)NCCN1C(=O)C1CCC1,5.54,-
CS(=O)(=O)Cc1ccccc1Br,-4.897,-
CN1[C@H]2CC[C@@H]1CN(CC(=O)Nc1ccn(C)n1)CC2,-24.43,-
CC(=O)NC1C(=O)N(C(C)C)c2ccc(C)cc21 (stereo not shown),-,15.61
COCC(=O)NCCc1ccccc1F,35.31,-
NC(=O)C1CCN(S(N)(=O)=O)CC1,34.99,-
CCC(CNS(=O)(=O)c1cnn(C)c1)N1CCCC1 (stereo not shown),-1.277,-
NS(=O)(=O)NCCc1ccc(-n2cccn2)cc1,22.73,-
CN(C)C(=O)CCCOc1nc(C(C)(C)C)no1,-,17.98
CC(C)C(C(=O)Nc1ccc(CCO)cc1)N(C)C (stereo not shown),-,15.47
CCN(CC)C(=O)N(C)Cc1nnc[nH]1,-7.07,-
CCc1nnc2n1CC(NC(=O)Cc1ccsc1)CC2 (stereo not shown),3.249,-
Nc1nc(CCCNC(=O)Cc2ccsc2)cs1,54.5,-
Cn1ccsc1=NC(=O)c1ccc(OCC(N)=O)cc1,-,55.56
COCCCNCc1ccc2c(c1)n(C)c(=O)n2C,-,2.643
CC1(N)Cc2ccccc21 (stereo not shown),0.06852,-
CC(C#N)CN(C)c1ncnc2c1cnn2CCO (stereo not shown),-,-7.782
CN(C)c1ccc(CNS(C)(=O)=O)cc1,8.789,-
Cc1cc2c(cc1S(=O)(=O)N1CCCC(N)C1)OCO2 (stereo not shown),50.45,2.2
CCC[C@H]1CN(c2noc(C)n2)C[C@@H]1N,-,-22.8
CSCCC(O)C(=O)NCC1(Cn2ccnc2)CC1 (stereo not shown),-1.335,-
COc1ccc(NC(C(N)=O)c2ccc(Br)cc2)cn1 (stereo not shown),53.44,54.62
CN1C(=O)c2ccccc2NC12CCOCC2,12.63,-
Cn1ncc(Cl)c1C(=O)N1CCc2ccccc2C1,5.023,-
CCC1(CO)CCCN(C(=O)c2ccc(COC)s2)C1 (stereo not shown),62.45,57.01
O=c1[nH]cnc2cccc(O)c12,-1.923,50.78
COCCC1CN(C(=O)c2nc(C)c[nH]2)CCO1 (stereo not shown),27.41,5.606
N#CC1(NC(=O)c2ccncc2Cl)CCSCC1,5.539,-
COc1cccc(-n2nnc(C(=O)NC3CC3)c2C)c1,65.87,56.19
Cc1nc(C)c(C(=O)N2CC[C@H](CO)[C@H](O)C2)s1,7.253,-
CN(CCN1CCCC1=O)C(=O)C1CCCO1 (stereo not shown),-,23.2
CC(C)c1nnc2ccc(Cl)nn12,-,8.871
CCn1cc(S(=O)(=O)N2CC[S+]([O-])C(C)(C)C2)cn1 (stereo not shown),-7.593,-
CCN(C)CCNC(=O)c1cc(C2CC2)[nH]n1,5.065,-
COCC(C)C(=O)Nc1ccc2[nH]nnc2c1 (stereo not shown),-,-10.27
O=C(Nc1ccncc1)NC1CCS(=O)(=O)C1 (stereo not shown),8.848,-
O=C1CCCCCCN1CC(=O)N1CCCS1(=O)=O,8.149,-
CCC(=O)N[C@H]1CCCNC1,-,-1.736
COCCN(CC(F)F)C(=O)NCc1ccco1,-,-0.3612
NC(=O)c1ccc2c(c1)CCCN2Cc1ccon1,22.59,-
CS(=O)(=O)NC1CCCN(Cc2nnnn2C2CC2)C1 (stereo not shown),16.1,-
Cn1cncc1CCNC(=O)c1ccc(Cl)cn1,40.92,25.83
CC(CN1CCOCC1)C(=O)NCCn1cc(Cl)cn1 (stereo not shown),-15.29,-
CCN(CCn1cccn1)C(=O)c1cc(C)n[nH]1,-,39.44
NCc1cnc(-c2ccccc2)nc1,21.89,-
NCC1CC12CCS(=O)(=O)CC2 (stereo not shown),3.259,-
Nc1noc(-c2ccc(Cl)cc2)n1,-0.09351,10.61
COCc1noc(CCNC(=O)c2cccn2C)n1,5.032,-
Cn1ncnc1COc1ccc(S(N)(=O)=O)cc1,-,-2.09
CC(C)[C@H](N)C(=O)N1CCC(CCCN(C)C)CC1,14.71,-

Measurements from “University of Dundee, Small-Polar-MMV Screening Library” (2021), ChEMBL document CHEMBL3988442.